# What was measured:
# [1] = target: HIV protease (Human immunodeficiency virus type 1 group M subtype B, UniProt P04585); experiment: HIV protease enzyme assay (fluorogenic substrate); format: biochemical; conditions: concentration reducing HIV protease activity by 50%; substrate 2-aminobenzoyl-Ile-Nle-Phe(p-NO2)-Gln-ArgNH2, pH 6.4
# Protocol: The compounds of the present invention are effective HIV protease inhibitors. […] The calculated IC50 indicates the concentration providing inhibition of 50%, i.e., the concentration at which the inhibitor compound reduces enzyme activity by 50%). The enzyme method is described below. The substrate is 2-aminobenzoyl-Ile-Nle-Phe(p-NO2)-Gln-ArgNH2. The positive control is MVT-101 [Miller, M. et al, Science, 246, 1149 (1989)]. The assay conditions are as follows: Assay buffer: 20 mM sodium phosphate, pH 6.4
# The above described substrate is dissolved in DMSO, then diluted 10 fold in assay buffer. Final substrate concentration in the assay is 80 IM.
# HIV protease is diluted in the assay buffer to a final concentration of glycerol is 18%. The test compound is dissolved in DMSO and diluted in DMSO to 10× the test concentration; […] of the enzyme preparation is added, the materials mixed and then the mixture is incubated at ambient temperature for 15 minutes. The enzyme reaction is initiated by the addition of […] of substrate. The increase in fluorescence is monitored at 4 time points (0, 8, 16 and 24 minutes) at ambient temperature. Each assay is carried out in duplicate wells.
# [2] = tested on: HIV; experiment: EC50 of Table 1 (antiviral activity, method not described); format: cell-based
smiles,measurement,setting,value
CC(C)CCN(C[C@@H](O)[C@H](Cc1ccccc1)NC(=O)C1CCCS(=O)(=O)C1)C(=O)NC(C)(C)C (some centres unmarked),IC50,[1],13 nM
same,EC50,[2],63 nM

# Reference: patent publication US20070015818A1, “Cyclic sulfone containing retroviral protease inhibitors” (G.D. Searle & Co. (now G.D. Searle, LLC), priority 1995, published 2007)
